# Laboratory results reported in article PMC4482062 (Nucleic Acids Research, 2015).
# “And” between values parts separate entries of the source, which are not always exact repeats. Identical values can stand only once.
# Test: Measurement of cellular concentration of Cx-SAM (LC-MS isotope ratio)
# Design: species or system E. coli K-12
# Conditions: LC-MS isotopic ratio-based method, cells grown in LB
structure (smiles),measurement,value
"Nc1ncnc2c1ncn2[C@@H]1O[C@H](C[S+](CC[C@H](N)C(=O)[O-])CC(=O)O)[C@@H](O)[C@H]1O (stereo partly drawn) [Cx-SAM, carboxy-S-adenosine-L-methionine]",in vivo concentration in E. coli K-12,0.5 ± 0.1 µM and 0.5 µM
